A mixed list of measured activities; the numbers were collected in NIAID ChemDB.

All rows: tests on isolated targets; species: HIV-1; target: Reverse transcriptase

a–b is a range or a potency band.

SMILES | measure | mutations | tested at | strain | method | result
CCCN1C(=O)c2cc(Cl)nnc2N(CC)c2ccccc21 | inhibition |  | 33 µM |  |  | 6%
Cc1cc(C(=O)O)ccc1NC(=O)CSc1nnc(C(F)F)n1-c1ccc(C)c2c1CCCC2 | fold resistance | RT-Y188L |  |  | nucleotide incorporation / radiometric | >2
CC(C)(C)c1csc(NC(=O)NCCc2ccccc2)n1 | inhibition |  | 10 µg/mL |  | nucleotide incorporation | 15%
Oc1ccc2c(c1)CN(c1nn3c(C4CC4)nnc3c3ccccc13)CC2 | IC90 |  |  | KER2008 | RT activity / fluorescence | 2.22 µM
O=C(NCCc1ccccc1)Nc1nncs1 | inhibition |  | 1 µg/mL |  | nucleotide incorporation | 14%
Nc1ccc2c(c1)CN(c1nn3c(-c4cccs4)nnc3c3ccccc13)CC2 | IC90 |  |  | KER2008 | RT activity / fluorescence | 7.75 µM
CCN1c2ncc(CCOc3ccc(-c4cocn4)cc3C)cc2C(=O)N(C)c2cccnc21 | fold resistance | RT-K103N Y181C |  | IIIB | nucleotide incorporation / radiometric | 1
CCN1c2ncc(CCOc3ccc(NC(=O)CC(C)(C)C(=O)O)c4ccccc34)cc2C(=O)N(C)c2cccnc21 | fold resistance | RT-Y188L |  |  | nucleotide incorporation / radiometric | >10
O=C(NCCc1ccccc1)Nc1ncccn1 | inhibition |  | 1 µg/mL |  | nucleotide incorporation | 12%
CCN1c2ncc(CCOc3ccc(-c4ccc(CC(=O)O)cc4[N+](=O)[O-])cc3C)cc2C(=O)N(C)c2cccnc21 | fold resistance | RT-K103N Y181C |  | IIIB | nucleotide incorporation / radiometric | >1
CCN1c2ncc(CCOc3ccc4cc(C(=O)NC(C)(C)C(=O)O)ccc4c3)cc2C(=O)N(C)c2cccnc21 | fold resistance | RT-Y188L |  |  | nucleotide incorporation / radiometric | >10
C/C1=C\C=C\C2(C)C=C(CO[C@H]3O[C@H](CO)[C@H](O)[C@H](O)[C@H]3O)C(C)CC23OC([O-])C(C3=O)C(O)/C=C/C2(C)C=C(C=O)C(C)CC23OC([O-])C(C3=O)C(O)/C(C)=C/C=C/C2C=C(CO[C@H]3O[C@H](CO)[C@H](O)[C@H](O)[C@H]3O)C(C)CC23OC([O-])C(C3=O)C(O)/C=C/C2(C)C=C(C=O)C(C)CC23OC([O-])C(C3=O)C1O | inhibition |  | 0.16 µg/mL | IIIB | RT activity | 30.9%
CCN1c2ncc(CCOc3ccc(CC(=O)O)c4ccccc34)cc2C(=O)N(C)c2ccc(C)nc21 | fold resistance | RT-Y188L |  |  | nucleotide incorporation / radiometric | >10
Cc1cccc2sc(NC(=O)NCCc3ccccc3)nc12 | inhibition |  | 10 µg/mL |  | nucleotide incorporation | 24%
CN1C(=O)c2ccnnc2N(C2CC2)c2ccccc21 | inhibition |  | 330 µM |  |  | 72%
CC(C)(C)c1ccc(-n2nnnc2SCC(=O)Nc2ccc(OCC(=O)NCCc3ccc(O)cc3)cc2Cl)c(Cl)c1 | IC50 | RT-K103 Y181C |  |  | PicoGreen / fluorescence | <1 µM
CCN1c2ncc(CCOc3ccc(CC(=O)O)c4ccccc34)cc2C(=O)N(C)c2cccnc21 | fold resistance | RT-K103N Y181C |  |  | nucleotide incorporation / radiometric | 1–10
CCN1c2nc(C(F)(F)F)ccc2NC(=O)c2cc(CCOc3cc[n+]([O-])c4ccccc34)cnc21 | fold resistance | RT-Y188L |  |  | nucleotide incorporation / radiometric | 16.5
CCN1c2ncc(CCOc3ccc(-c4ccc(C)nc4)cc3C)cc2C(=O)N(C)c2cccnc21 | fold resistance | RT-K103N Y181C |  | IIIB | nucleotide incorporation / radiometric | 1
CCc1ccc(-n2c(Br)nnc2SCC(=O)Nc2ccc(C(=O)NCCN3CCCC3)cc2Cl)c2ccccc12 | fold resistance | RT-Y188L |  |  | nucleotide incorporation / radiometric | >2
CN1CCN(c2cc(N)cc3c2CCN(c2nn4c(C5CC5)nnc4c4ccccc24)C3)CC1 | IC50 |  |  | 98US_MSC5016 | RT activity / fluorescence | 16.4 µM
Cc1ccc2c(c1)N(C)C(=O)c1ccnnc1N2C1CC1 | inhibition |  | 33 µM |  |  | 27%
COC(=O)c1ccc2c(c1)CN(c1nn3c(C)nnc3c3ccccc13)CC2 | IC90 |  |  | KER2008 | RT activity / fluorescence | 8.36 µM
O=C(NCCc1ccccc1)Nc1ccccc1 | inhibition |  | 10 µg/mL |  | nucleotide incorporation | 16%
O=C1NC(c2c[nH]c3ccccc23)=C/C1=C1\C(=O)NC2C=CC=CC12 | inhibition |  | 1500 µM |  | RT activity / ELISA | 20.5%
CCOc1ccc2nc(NC(=O)NCCc3ccccc3)sc2c1 | inhibition |  | 10 µg/mL |  | nucleotide incorporation | 8%
CCc1cc(CCc2nc3ccccc3o2)c(=O)[nH]c1C | fold resistance | RT-K103N Y181C |  |  | nucleotide incorporation | 571
CCN1c2ncc(CCOc3ccc4cc(CC(=O)O)ccc4c3C)cc2C(=O)N(C)c2cccnc21 | fold resistance | RT-Y188L |  |  | nucleotide incorporation / radiometric | 1–10
O=C(COc1ccc(NC(=O)CSc2nnnn2-c2ccc(C3CC3)cc2Cl)c(Cl)c1)NCCc1ccncc1 | IC50 |  |  | WT | PicoGreen / fluorescence | <1 µM

Neighbouring rows are from separate reports. Blank or dashed fields: not listed here. Fold resistance has wild type as its base. Inhibition is in % at the dose shown (toxicity tests: loss of growth or viability). ICn: concentration for n% inhibition.